The values below come from patent US20050053680A1, “Pediculicidal compound” (priority 2002, published 2005).

The test system of this test is Human lice, Pediculus humanus. The note with it: Table 7.

As for `OCCN(CCO)CCO`, the “Number of lice Moribund” value (single ingredients in water vehicle) was found to be 4. In addition, under “single ingredients in water vehicle (Dehyquart ACA 1.00%, Nettle Extract 1.00%, Thyme Extract 1.00%, Nipasept 0.15%, Triethanolamine 0.06%), 19-21 lice”, the “Number of lice Killed” value was 5. In addition, the “Mortality % Total” value (single ingredients in water vehicle, Water 20) was 43%. Further, for the setting “single ingredients in water vehicle, eggs laid, Water 21”, the Number of eggs is on record as 16.
